PSTVd loop 15 mutant pool in Nicotiana benthamiana

Reference: Wu et al. 2024, doi:10.1371/journal.ppat.1012142.

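A pool of all variants was put on leaves of three Nicotiana benthamiana plants. Samples came from the inoculated region at 5 days, the leaf margin at 10 and upper systemic leaves at 12.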

PSTVd intermediate strain, loop 15: wild type GGAAACCGCUACUAC, pool pattern GGAAACCGNNNNNNC; upper and lower strand joined, each 5' to 3', the first 7 letters being the upper strand, closing pairs included.

Numbers give reads per thousand; 0 = not seen among the reads, higher = more abundant. Each value is the mean of three plants. "Pool" is the share in the plasmid pool used as inoculum, on the same scale. The inoculated region was read from the minus strand, the other sites from the plus strand. Samples held 43,870 to 66,106 reads, so the smallest values rest on one or two reads.

| sequence | pool | inoculated region | leaf margin | systemic leaves |
|---|---|---|---|---|
| GGAAACCGAAACAUC | 0.176 | 0.114 | 0.00668 | 0.00537 |
| GGAAACCGAAUCAUC | 0.224 | 0.240 | 0.0208 | 0 |
| GGAAACCGAAUCCGC | 0.176 | 0.122 | 0.00668 | 0 |
| GGAAACCGACCGUCC | 0.208 | 0.0858 | 0.0128 | 0.00537 |
| GGAAACCGACGUGAC | 0.224 | 0.111 | 0 | 0 |
| GGAAACCGACUAGCC | 0.192 | 0.0991 | 0 | 0.00537 |
| GGAAACCGACUUUCC | 0.304 | 0.0722 | 0 | 0 |
| GGAAACCGAGACGGC | 0.144 | 0.0867 | 0 | 0 |
| GGAAACCGAGAGAAC | 0.224 | 0.304 | 0.0835 | 0.0587 |
| GGAAACCGAGAGUGC | 0.176 | 0.316 | 0.0926 | 0.0815 |
| GGAAACCGAGGUGGC | 0.208 | 0.0939 | 0 | 0 |
| GGAAACCGAGUCGUC | 0.208 | 0.108 | 0.00742 | 0 |
| GGAAACCGAUAUCGC | 0.384 | 0.149 | 0.00742 | 0 |
| GGAAACCGAUCCGGC | 0.304 | 0.268 | 0.0275 | 0 |
| GGAAACCGAUGCUCC | 0.160 | 0.186 | 0.0128 | 0.0104 |
| GGAAACCGAUUCGGC | 0.176 | 0.0585 | 0.0141 | 0.00537 |
| GGAAACCGCACGUAC | 0.240 | 0.376 | 0.0711 | 0.103 |
| GGAAACCGCAGAAUC | 0.176 | 0.0828 | 0.0195 | 0 |
| GGAAACCGCAGACCC | 0.208 | 0.0643 | 0.0141 | 0.00537 |
| GGAAACCGCAGCAAC | 0.192 | 0.0835 | 0.0208 | 0.00760 |
| GGAAACCGCAGUGUC | 0.304 | 0.197 | 0.0121 | 0.00537 |
| GGAAACCGCAUAGGC | 0.144 | 0.0578 | 0.0128 | 0 |
| GGAAACCGCCAAUUC | 0.208 | 0.396 | 0.113 | 0.0695 |
| GGAAACCGCCGAUAC | 0.224 | 0.284 | 0.111 | 0.0642 |
| GGAAACCGCCGUGCC | 0.192 | 0.113 | 0.0187 | 0 |
| GGAAACCGCCUGAGC | 0.176 | 0.188 | 0 | 0.00760 |
| GGAAACCGCGCCACC | 0.304 | 0.0866 | 0.0121 | 0 |
| GGAAACCGCGCCGGC | 0.176 | 0.101 | 0 | 0.00537 |
| GGAAACCGCGGAUAC | 0.176 | 0.329 | 0.135 | 0.0691 |
| GGAAACCGCGUGCUC | 0.208 | 0.416 | 0.00539 | 0.00537 |
| GGAAACCGCGUUGCC | 0.144 | 0.121 | 0.00742 | 0 |
| GGAAACCGCUCAAAC | 0.192 | 0.107 | 0.0148 | 0 |
| GGAAACCGCUGUGAC | 0.144 | 0.115 | 0.0128 | 0 |
| GGAAACCGCUUUGGC | 0.304 | 0.0930 | 0.00668 | 0 |
| GGAAACCGGACAAAC | 0.320 | 0.0441 | 0.00668 | 0 |
| GGAAACCGGAGAAGC | 0.272 | 0.0760 | 0.00668 | 0 |
| GGAAACCGGAGGGAC | 0.208 | 0.0859 | 0.0148 | 0 |
| GGAAACCGGCAGAAC | 0.304 | 0.303 | 0.0687 | 0.0700 |
| GGAAACCGGCCUCGC | 0.224 | 0.119 | 0 | 0 |
| GGAAACCGGCGACGC | 0.160 | 0.0923 | 0 | 0 |
| GGAAACCGGCGGCCC | 0.208 | 0.0834 | 0.00539 | 0 |
| GGAAACCGGUAGGAC | 0.304 | 0.263 | 0.100 | 0.0747 |
| GGAAACCGGUCGAUC | 0.224 | 0.0687 | 0.0128 | 0 |
| GGAAACCGGUGCGCC | 0.192 | 0.0928 | 0.0202 | 0 |
| GGAAACCGGUGUAUC | 0.160 | 0.0856 | 0.00539 | 0 |
| GGAAACCGGUUCAUC | 0.224 | 0.102 | 0.0141 | 0 |
| GGAAACCGGUUGCCC | 0.256 | 0.106 | 0 | 0 |
| GGAAACCGGUUGCUC | 0.272 | 0.0878 | 0.00539 | 0.00537 |
| GGAAACCGUAAUAAC | 0.272 | 0.265 | 0.108 | 0.0761 |
| GGAAACCGUAUCCAC | 0.128 | 0.114 | 0 | 0.00537 |
| GGAAACCGUCACCAC | 0.208 | 0.337 | 0.116 | 0.0591 |
| GGAAACCGUCAUAAC | 0.192 | 0.347 | 0.124 | 0.0177 |
| GGAAACCGUCGGAUC | 0.224 | 0.0883 | 0.0134 | 0 |
| GGAAACCGUCGUCCC | 0.208 | 0.0291 | 0.00668 | 0 |
| GGAAACCGUCUAAUC | 0.240 | 0.121 | 0.0121 | 0.00537 |
| GGAAACCGUCUCCGC | 0.240 | 0.0798 | 0.0162 | 0 |
| GGAAACCGUCUCGUC | 0.304 | 0.0972 | 0.0316 | 0.00537 |
| GGAAACCGUCUUCGC | 0.208 | 0.0847 | 0.0148 | 0.00537 |
| GGAAACCGUGGCUAC | 0.208 | 0.307 | 0.0969 | 0.0464 |
| GGAAACCGUGUCAGC | 0.160 | 0.0674 | 0.00539 | 0 |
| GGAAACCGUGUGAAC | 0.128 | 0.333 | 0.119 | 0.0215 |
| GGAAACCGUUCAUGC | 0.240 | 0.451 | 0.138 | 0.0161 |
| GGAAACCGUUCAUUC | 0.288 | 0.412 | 0.0969 | 0.0745 |
| GGAAACCGUUCCACC | 0.288 | 0.115 | 0.0121 | 0 |

Excerpt, the final 8 entries:

{"sequence": "GGAAACCGUCUCGUC", "pool": "0.304", "inoculated region": 0.0972, "leaf margin": 0.0316, "systemic leaves": 0.00537}
{"sequence": "GGAAACCGUCUUCGC", "pool": "0.208", "inoculated region": 0.0847, "leaf margin": 0.0148, "systemic leaves": 0.00537}
{"sequence": "GGAAACCGUGGCUAC", "pool": "0.208", "inoculated region": 0.307, "leaf margin": 0.0969, "systemic leaves": 0.0464}
{"sequence": "GGAAACCGUGUCAGC", "pool": "0.160", "inoculated region": 0.0674, "leaf margin": 0.00539, "systemic leaves": 0}
{"sequence": "GGAAACCGUGUGAAC", "pool": "0.128", "inoculated region": 0.333, "leaf margin": 0.119, "systemic leaves": 0.0215}
{"sequence": "GGAAACCGUUCAUGC", "pool": "0.240", "inoculated region": 0.451, "leaf margin": 0.138, "systemic leaves": 0.0161}
{"sequence": "GGAAACCGUUCAUUC", "pool": "0.288", "inoculated region": 0.412, "leaf margin": 0.0969, "systemic leaves": 0.0745}
{"sequence": "GGAAACCGUUCCACC", "pool": "0.288", "inoculated region": 0.115, "leaf margin": 0.0121, "systemic leaves": 0}

Sequences that differ at fixed positions probably stem from PCR or sequencing errors, and defective variants can be carried along by functional ones. Wild type was 33.9 per thousand in the pool and the most common sequence in every sample (inoculated region 202, 200, 159; leaf margin 724, 746, 710; systemic leaves 856, 883, 880).